Measured values from patent US20110087037A1, “SYNTHESIS OF RING B ABEO-STEROLS AS NOVEL INHIBITORS OF MYCOBACTERIUM TUBERCULOSIS” (priority 2007, published 2011).

System: VERO cells (ATCC CCL-81)
Test: Cytotoxicity against VERO cells
Assay type: cell-based
Settings: SI=IC50/MIC (VERO IC50 / Mtb MIC)

SMILES | Selectivity index (SI)
CCC(CCC(C)C1CCC2C3C(C=O)=C4CC(O)CCC4(C)C3CCC12C)C(C)C (centres unmarked) [Compound 5] | 7
C=C(CC[C@@H](C)[C@H]1CC[C@H]2[C@@H]3C(C=O)=C4C[C@@H](O)CC[C@]4(C)[C@H]3CC[C@]12C)C(C)C [Compound 2] | 6.5
CC(C)CCC[C@@H](C)[C@H]1CC[C@H]2[C@@H]3C(C=O)=C4C[C@@H](O)CC[C@]4(C)[C@H]3CC[C@]12C [Compound 7] | > 9
CC(C)[C@@H](C)CC[C@@H](C)[C@H]1CC[C@H]2[C@@H]3C(C=O)=C4C[C@@H](O)CC[C@]4(C)[C@H]3CC[C@]12C [Compound 11] | 10.8
CC(C)C(C)C1(C)CC1C(C)C1CCC2C3C(C=O)=C4CC(O)CCC4(C)C3CCC12C (centres unmarked) [Compound 9] | 4.3
